Pooled drug test results. Numbers come from NIAID ChemDB, via PubChem.

Shared fields: growth or infection tests; organism: Herpes simplex virus 1

Lines come from different laboratories, so protocols vary. ECn: concentration that inhibits the pathogen or its effect by n%. An empty or dashed field is not shown.

SMILES,strain,mutations,endpoint,method,cell line,value
S=C(S)OC1CC2CCC1C2,,,EC50,plaque count,,19.8 µM
Nc1nc2c(ncn2CC[C@H](O)CO)c(=O)[nH]1,KJ502,,EC50,plaque count,VERO,12 µM
O=C(O)CP(=O)(O)O,KOS F McIntyre,,EC50,cytopathic effect,PRK,10 µg/mL
C=CCOCc1c(Cl)nc2ccc(Cl)cn12,KOS,,EC50,ELISA,BSC-1,45 µM
C#Cc1cn([C@H]2C[C@H](O)[C@@H](CO)O2)c(=O)[nH]c1=O,KOS,,EC50,cytopathic effect,HSF,0.2 µg/mL
CC(C)NS(=O)(=O)c1ccccc1C(=O)N/N=C/c1ccc(Br)cc1,KOS,TK-deficient acyclovir-resistant,EC50,cytopathic effect,HEL,>100 µM
CC1(C)[C@@H](CCO)C[C@H]1n1nnc2c(N)ncnc21,TK-/VMW 1837,,EC50,cytopathic effect,E6SM,150 µg/mL
CC(C)[C@H](N)C(=O)OCC(COC(=O)[C@@H](N)C(C)C)OCn1cnc2c(=O)[nH]c(N)nc21,,,EC50,plaque count,HFF,0.29 µM
Cc1cn([C@@H]2OC3COP(=O)(O)OC3[C@H]2O)c(=O)nc1N,McIntyre,,EC50,,,>400 µg/mL
Nc1nc2c(ncn2COC(CO)CO)c(=O)[nH]1,KOS,,EC50,cytopathic effect,,0.008 µg/mL
S=C(S)OCc1ccccc1,,,EC50,plaque count,,80 µM
Nc1ncnc2c1ncn2[C@@H]1O[C@H](CO)[C@@H](O)[C@@H]1O,KOS F McIntyre,,EC50,cytopathic effect,PRK,5 µg/mL
Nc1nc2c(ncn2C[C@H]2CS[C@H](P(=O)(O)O)O2)c(=O)[nH]1,KOS,,EC50,plaque count,VERO,32 µg/mL
Nc1ccn([C@@H]2O[C@H](CO)C[C@H]2O)c(=O)n1,,,EC90,virus yield,HeLa,>250 µM
CCCCCC[C@@H]([C@H](C)O)n1cnc2c(N)ncnc21,,,EC50,,HELA F,<50 µM
CC(C)[C@H](N)C(=O)NCC(=O)OCC(COC(=O)CNC(=O)[C@@H](N)C(C)C)OCn1cnc2c(=O)[nH]c(N)nc21,,,EC50,plaque count,HFF,0.25 µM
Nc1ccn([C@@H]2O[C@H](CO)[C@@H](O)[C@@H]2O)c(=O)n1,KOS F McIntyre,,EC50,cytopathic effect,PRK,0.04 µg/mL
Nc1nc(=O)n([C@H]2C[C@H](O)[C@@H](CO)O2)cc1F,,,EC50,virus yield,HeLa,<50 µM
CCCCCCc1cn([C@@H]2OC3COP(=O)(O)OC3[C@H]2O)c(=O)nc1N,KOS,,EC50,,,>400 µg/mL
Nc1nc2c(ncn2C[C@H]2CC[C@@H](P(=O)(O)O)O2)c(=O)[nH]1,KOS,,EC50,plaque count,VERO,44 µg/mL
C/C(=N/Nc1nc(-c2ccc(Br)cc2)cs1)c1ccc(NC(=O)CN2C(=O)c3ccccc3S2(=O)=O)cc1,KOS,,EC50,cytopathic effect,HEL,>20 µM
OCCCOCc1c(Cl)nc2ccc(Cl)cn12,KOS,,EC50,ELISA,BSC-1,60 µM
O=C(NCc1ccc(Cl)cc1)c1c[nH]c2c(F)cccc2c1=O,DJL,,EC50,plaque count,,15 µM
CCCCc1cn([C@@H]2O[C@H](COP(=O)(O)O)[C@@H](O)[C@H]2O)c(=O)nc1N,McIntyre,,EC50,,,>400 µg/mL
Cc1cn([C@H]2C[C@H](O)[C@@H](CO)O2)c(=O)nc1N,,,EC50,virus yield,HeLa,<32 µM
C/C(=N/NC(N)=S)c1ccc(NC(=O)CN2C(=O)c3ccccc3S2(=O)=O)cc1,KOS,TK-deficient acyclovir-resistant,EC50,cytopathic effect,HEL,>100 µM
CC/C=C\C/C=C\C/C=C\C/C=C\C/C=C\CCCC(=O)OC(CO[C@H]1O[C@H](CS(=O)(=O)O)[C@@H](O)[C@H](O)[C@H]1O)OC(=O)CCCCCCCCCCCCCCC,,,EC50,,VERO,42 µg/mL
S=C(S)OC1CCCCCCCCCCC1,,,EC50,plaque count,,7.5 µM
CC(C)c1cn([C@@H]2O[C@H](COP(=O)(O)O)[C@@H](O)[C@H]2O)c(=O)nc1N,McIntyre,,EC50,,,>400 µg/mL
O=c1[nH]c(=O)n([C@H]2C[C@H](O)[C@@H](CO)O2)cc1/C=C/I,KOS,,EC50,cytopathic effect,HSF,0.02 µg/mL
Cc1ccc(/C=N/NC(=O)c2ccccc2S(=O)(=O)NC(C)C)cc1,KOS,TK-deficient acyclovir-resistant,EC50,cytopathic effect,HEL,>100 µM
CC1(C)[C@@H](CCO)C[C@H]1n1cnc2c(N)nc(N)nc21,KOS,,EC50,cytopathic effect,E6SM,>400 µg/mL
CCCc1cn([C@H]2C[C@H](O)[C@@H](CO)O2)c(=O)[nH]c1=O,KOS F McIntyre,,EC50,cytopathic effect,PRK,0.8 µg/mL
OC[C@H]1O[C@@H](n2c(Cl)nc3cc(Cl)c(Cl)cc32)[C@H](O)[C@@H]1O,KOS,,EC50,ELISA,BSC-1,102 µM
CC1(C)[C@@H](CCO)C[C@H]1n1cnc2c(=O)[nH]cnc21,TK-/B2006,,EC50,cytopathic effect,E6SM,>400 µg/mL
C/C(=N/Nc1nc(-c2ccc(C)cc2)cs1)c1ccc(NC(=O)CN2C(=O)c3ccccc3S2(=O)=O)cc1,KOS,,EC50,cytopathic effect,HEL,20 µM
S=C(S)OC1CCCCC1,,,EC50,plaque count,,42.8 µM
CCSCc1c(Cl)nc2ccc(Cl)cn12,KOS,,EC50,ELISA,BSC-1,20 µM
CC(C)c1cn([C@@H]2OC3COP(=O)(O)OC3[C@H]2O)c(=O)nc1N,McIntyre,,EC50,,,>400 µg/mL